The record followed here is ChEMBL document CHEMBL3351542, “Nonpeptide small molecule agonist and antagonist original leads for neuropeptide FF1 and FF2 receptors” (J Med Chem, 2014).

A value given as a limit tells only on which side of the number the result lay.

For assay [1], the species on record is Homo sapiens. Description: Selectivity ratio of Ki for human NPFF2 receptor to Ki for human NPFF1 receptor.
For assay [2], the species on record is Homo sapiens. Description: Selectivity ratio of Ki for human MOR to Ki for human NPFF2 receptor.
The species named for assay [3] is Homo sapiens. The assay can be described thus: Selectivity ratio of Ki for human DOR to Ki for human NPFF1 receptor.

Turning to `N=C(N)NCCC[C@H](N)C(=O)NCC1(Nc2ccccc2)CCN(Cc2ccccc2)CC1`, in the assay filed under Homo sapiens [1], the Ratio Ki was determined as 2.2.

`COc1cc(NC2(CNC(=O)CNC(=N)N)CCN(Cc3ccccc3)CC2)cc(OC)c1`: the Ratio Ki in the assay filed under Homo sapiens [1] was 8.7. For `N=C(N)NCC(=O)NCC1(Cc2ccccc2)CCN(Cc2ccccc2)CC1`, the Ratio Ki in the assay filed under Homo sapiens [2] came to 2.

Regarding `N=C(N)NCCNC(=O)C1(Nc2ccccc2)CCN(Cc2ccccc2)CC1`, the Ratio Ki in the assay listed under Homo sapiens [1] was 17.6; in the assay listed under Homo sapiens [3], over 18. For the molecule `N=C(N)NCC(=O)NCC1(Nc2cccc3ccccc23)CCN(Cc2ccccc2)CC1`, the Ratio Ki in the assay filed under Homo sapiens [1] was 3.3.
